Measured values from several laboratories, pooled; numbers as filed in NIAID ChemDB.

Shared fields: growth or infection tests; agent: HIV-1; read by: cytopathic effect / MTT; read-out: EC50

Conditions beyond the fields shown may differ between rows. Blank or dashed fields: not listed here. ECn is the concentration giving n% inhibition of infection, replication or growth.

compound	strain	cells	setting	mutations	value
CCC(CO)n1cc(C(=O)O)c(=O)c2cc(N)c(N3CCN(c4ccccn4)CC3)cc21	IIIB	MT-4	-	-	>25.26 µM
O=[N+]([O-])c1cnn2c1nnc1ccc(Cl)cc12	IIIB	MT-4	-	-	>1.7 µM
CCC(C)[C@@H](C(=O)N[C@@H](Cc1ccccc1)[C@H](O)CN(CC(C)C)S(=O)(=O)c1ccc(/C=N/O)cc1)N1CCN(Cc2cccc(C(C)C)n2)C1=O	A17 (LPV-resistant)	MT-4	-	PR-L10F V32I M46I I47V Q68E I84V	0.005 µM
Nc1cc2c(=O)c(C(=O)O)cn(C3CC3)c2cc1N1CCN(c2cnccn2)CC1	IIIB	MT-4	-	-	4.05 µM
CC1C(=O)Nc2ccc(Cl)cc2S(=O)(=O)N1CC=Cc1ccccc1	-	MT-4	-	-	10 µM
[O-][n+]1nc2c(Br)cnn2c2ccccc21	IIIB	MT-4	-	-	>200 µM
Cc1cn([C@H]2C=C[C@@H](CO)O2)c(=O)[nH]c1=O	RD 05-RT-41L D215Y K65R Recombinant	MT-4	-	-	0.22 µM
CC(C)=CCN1C(C)Cn2c(=S)[nH]c3cc(Cl)cc(c32)S1(=O)=O	-	MT-4	-	-	>23 µM
CCC(C)[C@@H](C(=O)N[C@@H](Cc1ccccc1)[C@H](O)CN(CC(C)C)S(=O)(=O)c1ccc(/C=N/O)cc1)N1CCN(Cc2cccc(COC)n2)C1=O	-	MT-4	50% human serum	-	0.022 µM
C#CCOCn1c(Cc2cc(Cl)cc(Cl)c2)c(CC)c(=O)[nH]c1=O	NNRTI-resistant (RT K103N Y181C) A17	MT-4	-	RT-K103N Y181C	5 µM
Cc1ccccc1Sc1c(C(=O)NNCCO)[nH]c2ccc(Cl)cc12	IIIB	C8166	-	-	0.3 µM
O=[N+]([O-])c1ccc2c(c1)[n+]([O-])nc1c([N+](=O)[O-])cnn12	IIIB	MT-4	-	-	>1.4 µM
CC(C)=CCOc1cc(Nc2nccc(CO)n2)ccc1Cl	IIIB	MT-2	-	-	>0.22 µM
Nc1nc(F)nc2c1ncn2[C@H]1S[C@@H](CO)C=C1F	LAI	PBMC	-	-	11.5 µM
CC1=C[C@@H]2[C@@H]3C(=O)N(NC(=O)Nc4ccccc4)C(=O)[C@@H]3[C@H]1C[C@@H]2C(C)C	IIIB	MT-4	-	-	62 µM
CCn1cc(C(=O)O)c(=O)c2cc(F)c(N3CCN(c4ccccc4OC)CC3)c(OC(F)F)c21	ADP/141	MT-4	-	-	0.3 µM
N#Cc1cnn2c1nnc1cc([N+](=O)[O-])ccc12	IIIB	MT-4	-	-	>1.5 µM
CC(C)=CCN1C(C)C(=O)Nc2ccc(Cl)cc2S1(=O)=O	-	MT-4	-	-	0.8 µM
CC(C)[C@]12C=C[C@](C)(CC1)[C@H]1C(=O)N(NC(=S)Nc3ccccc3)C(=O)[C@H]12	IIIB	MT-4	-	-	>60 µM
CCOCn1c(Cc2ccccc2)c(C(C)C)c(=O)[nH]c1=O	NNRTI-resistant (RT Y181C) N119	MT-4	-	RT-Y181C	44 µM
Nc1cc2c(=O)c(C(=O)O)cn(C3CC3)c2cc1N1CCN(c2ccccn2)CC1	IIIB	MT-4	-	-	1.17 µM
Cc1cc(C)cc(S(=O)(=O)c2c(C(=O)NCCO)[nH]c3ccc(Cl)cc23)c1	IIIB	C8166	-	-	0.002 µM
O=[N+]([O-])c1cnn2c1n[n+]([O-])c1ccc(Cl)cc12	IIIB	MT-4	-	-	>5.7 µM
Cc1cc(C)cc(Sc2c(C(=O)NNCCO)[nH]c3ccc(Cl)cc23)c1	-	MT-4	-	RT-K103N Y181C	6.7 µM
CCc1c(Cc2cc(Cl)cc(Cl)c2)n(COC2Cc3ccccc3C2)c(=O)[nH]c1=O	IIIB	MT-4	-	-	0.13 µM
CC(C)=CCOc1cc(Nc2nc(N)cc(Cl)n2)ccc1Cl	IIIB	MT-2	-	-	>0.014 µM
O=C(NNCCO)c1[nH]c2ccc(Cl)cc2c1S(=O)(=O)c1ccccc1	-	MT-4	-	RT-Y181C	0.04 µM
CCOC(=O)C(C)N(CC)S(=O)(=O)c1cc(Cl)ccc1N	-	MT-4	-	-	>200 µM
CCC(C)[C@@H](C(=O)N[C@@H](Cc1ccccc1)[C@H](O)CN(CC1CCCC1)S(=O)(=O)c1ccc(/C=N/O)cc1)N1CCN(Cc2cccc(COC)n2)C1=O	A17 (LPV-resistant)	MT-4	-	PR-L10F V32I M46I I47V Q68E I84V	0.001 µM
CCOCn1c(Cc2cc(Cl)cc(Cl)c2)c(CC)c(=O)[nH]c1=O	IIIB	MT-4	-	-	0.04 µM
CC(C)CN(C[C@@H](O)[C@H](Cc1ccccc1)NC(=O)[C@@H](N1CCN(Cc2cccnc2)C1=O)C(C)(C)C)S(=O)(=O)c1ccc(/C=N/O)cc1	-	MT-4	50% human serum	-	0.012 µM
Cc1cccc(S(=O)(=O)c2c(C(=O)NCCO)[nH]c3ccc(Cl)cc23)c1	IIIB	C8166	-	-	0.009 µM
CCc1c(Cc2cc(Cl)cc(Cl)c2)n(COCC=C(C)C)c(=O)[nH]c1=O	IIIB	MT-4	-	-	0.05 µM
CCN1CC(=O)Nc2ccc(Cl)cc2S1(=O)=O	-	MT-4	-	-	36 µM
O=[N+]([O-])c1ccc2c(c1)nnc1c([N+](=O)[O-])cnn12	IIIB	MT-4	-	-	>1.4 µM
Cc1ccccc1CN1C(C)C(=O)Nc2ccc(Cl)cc2S1(=O)=O	-	MT-4	-	-	1 µM
N#Cc1ccc(Nc2nccs2)cc1OCc1ccsc1	IIIB	MT-2	-	-	>1.1 µM
CSCSc1nc(Cc2ccccc2)c(C)c(=O)[nH]1	IIIB	MT-4	-	-	7 µM
CC1=C(C)[C@]2(C)C(C)[C@@]1(C)[C@@H]1C(=O)N(NC(=O)Nc3ccccc3)C(=O)[C@@H]12	IIIB	MT-4	-	-	>42 µM
COc1ccccc1N1CCN(c2cc3c(cc2N)c(=O)c(C(=O)O)cn3C2CC2)CC1	IIIB	MT-4	-	-	>23.77 µM
Clc1ccc2nnc3c(Br)cnn3c2c1	IIIB	MT-4	-	-	>200 µM
N#Cc1ccc(Nc2nccs2)cc1OCc1ccoc1	IIIB	MT-2	-	-	>4 µM
Cc1ccc(S(=O)(=O)c2c(C(=O)NNCCO)[nH]c3ccc(Cl)cc23)cc1	IIIB	C8166	-	-	0.1 µM
CNc1cc2c(=O)c(C(=O)O)cn(C)c2cc1N1CCN(c2cccc(C(F)(F)F)c2)CC1	IIIB	MT-4	-	-	>6.32 µM
CCC(C)[C@@H](C(=O)N[C@@H](Cc1ccccc1)[C@H](O)CN(CC(C)C)S(=O)(=O)c1ccc(/C=N/O)cc1)N1CCN(Cc2ccncc2)C1=O	-	MT-4	-	-	0.006 µM
CNc1cc2c(=O)c(C(=O)O)cn(N(C)C)c2cc1N1CCN(c2ccccn2)CC1	IIIB	MT-4	-	-	>178 µM
N#Cc1cnn2c1nnc1cc(Cl)ccc12	IIIB	MT-4	-	-	>4.5 µM
Cc1cc(C)cc(Sc2c(C(=O)NCCO)[nH]c3ccc(Cl)cc23)c1	IIIB	MT-4	-	-	0.012 µM
Cc1cccc(CN2C(C)C(=O)Nc3ccc(Cl)cc3S2(=O)=O)c1	-	MT-4	-	-	0.13 µM
CSCSc1nc(C(C)c2c(F)cccc2F)cc(=O)[nH]1	IIIB	MT-4	-	RT-Y181C	29 µM
Cc1cc(C)cc(S(=O)(=O)c2c(C(=O)NNCCO)[nH]c3ccc(Cl)cc23)c1	-	MT-4	-	RT-K103N Y181C	10 µM
CC1=C[C@@H]2[C@@H]3C(=O)N(NC(=S)NC4CCCCC4)C(=O)[C@@H]3[C@H]1C[C@@H]2C(C)C	IIIB	MT-4	-	-	>47 µM
Cc1ccc(Sc2c(C(=O)NNCCO)[nH]c3ccc(Cl)cc23)c(C)c1	IIIB	C8166	-	-	0.7 µM

For reference, 5 entries again:

{"compound": "Cc1cc(C)cc(S(=O)(=O)c2c(C(=O)NCCO)[nH]c3ccc(Cl)cc23)c1", "strain": "IIIB", "cells": "C8166", "value": "0.002 µM"}
{"compound": "Cc1cc(C)cc(Sc2c(C(=O)NCCO)[nH]c3ccc(Cl)cc23)c1", "strain": "IIIB", "cells": "MT-4", "value": "0.012 µM"}
{"compound": "CC1C(=O)Nc2ccc(Cl)cc2S(=O)(=O)N1CC=Cc1ccccc1", "cells": "MT-4", "value": "10 µM"}
{"compound": "Nc1cc2c(=O)c(C(=O)O)cn(C3CC3)c2cc1N1CCN(c2cnccn2)CC1", "strain": "IIIB", "cells": "MT-4", "value": "4.05 µM"}
{"compound": "CC(C)[C@]12C=C[C@](C)(CC1)[C@H]1C(=O)N(NC(=S)Nc3ccccc3)C(=O)[C@H]12", "strain": "IIIB", "cells": "MT-4", "value": ">60 µM"}